Compound potency records, mixed from different reports. Data source: NIAID ChemDB in PubChem.

All rows: toxicity to cultured cells; endpoint: CC50

An empty or dashed field is not shown. CCn is the concentration with n% toxicity to the cells. Lines come from different laboratories, so protocols vary.

smiles,read by,cells,value
C=C(C)[C@@H]1CCC2(C(=O)OC)CC[C@]3(C)C(CCC4[C@@](C)(CC#N)C(C(C)(C)C(=O)NCC(=O)OCC)CC[C@]43C)C12,MTT,RD TE32,70.5 µM
CCN(CC)C(=O)N1CCN(c2ncnc(N3CC[N+]4(CC3)CC[N+]3(CCN(c5ncnc(N6CCN(C(=O)N(CC)CC)CC6)c5[N+](=O)[O-])CC3)CC4)c2[N+](=O)[O-])CC1,-,GMK,>509.2 µg/mL
CCOC(=O)CCCCCOc1cccc(CN(C(=O)c2ccc(-c3cccc(-c4ccccc4)c3)cc2)C(C)C)c1,-,RAJI,>20 µM
CCCc1cc(=O)oc2cc(O)c(C(=O)CC)c(O)c12,-,CV-1,7 µg/mL
O=C(C(=O)N1CCN(C(=O)c2ccccc2)CC1)c1c[nH]c2c(-c3ncco3)ccnc12,trypan blue,HeLa,>100 µM
CCCc1cc(=O)oc2c3c(c4c(c12)OC(C)(C)C=C4)O[C@H](C)[C@H](C)C3=O,neutral red,CV-1,14 µg/mL
CC(C)C[C@@H]1NC(=O)[C@H](Cc2c[nH]c3ccccc23)NC(=O)[C@@H](C)NC(=O)[C@H](CCCCN)NC(=O)[C@H](C(C)C)NC(=O)[C@@H](CC(C)C)NC1=O,MTT,Colorectal carcinoma,>30 µM
COc1ccnc2[nH]cc(C(=O)C(=O)N3CCN(C(=O)c4ccccc4)C[C@H]3C)c12,trypan blue,HeLa,>100 µM
C[C@@H](Nc1cc(=O)n(O)c2ncccc12)c1ccccc1,-,HeLa,0.16 µM
NC(=O)c1ncc(Cl)c2c(C(=O)C(=O)N3CCN(C(=O)c4ccccc4)CC3)c[nH]c12,trypan blue,HeLa,>100 µM
CC1(C)[C@@H](O)CC[C@]2(C)[C@H]3C(=O)C=C4[C@@H]5C[C@@](C)(C(=O)OCc6ccc(S(C)(=O)=O)cc6)CC[C@]5(C)CC[C@@]4(C)[C@]3(C)CC[C@@H]12,-,HepG2.2.15,>1030 µM
Nc1ccn(-c2ncc(F)c3c(C(=O)C(=O)N4CCN(C(=O)c5ccccc5)CC4)c[nH]c23)n1,trypan blue,HeLa,>100 µM
CC(C)C[C@@H]1NC(=O)[C@H](Cc2c[nH]c3ccccc23)NC(=O)[C@@H](CC(C)C)NC(=O)[C@H](CCCCN)NC(=O)[C@H](C(C)C)NC(=O)[C@@H](CC(C)C)NC1=O,MTT,Colorectal carcinoma,>30 µM
CC1(C)[C@@H](O)CC[C@]2(C)[C@H]3CC=C4[C@@H]5C[C@@](C)(C(=O)OCc6ccc(Br)cc6F)CC[C@]5(C)CC[C@@]4(C)[C@]3(C)CC[C@@H]12,-,HepG2.2.15,1150 µM
CC(C)C[C@@H]1NC(=O)[C@H](Cc2c[nH]c3ccccc23)NC(=O)CNC(=O)[C@H](CC(N)=O)NC(=O)[C@H]([C@@H](C)O)NC(=O)[C@@H](CC(C)C)NC1=O,MTT,Lung carcinoma cells,>30 µM
Nc1nc(-c2ccc(NC(=O)NCCc3ccccn3)cc2)cs1,-,HS68,<93 µM
CCCCCCCCOC(=O)[C@@]1(C)CC[C@]2(C)CC[C@]3(C)C(=CC(=O)[C@@H]4[C@@]5(C)CC[C@H](O)C(C)(C)[C@@H]5CC[C@]43C)[C@@H]2C1,-,HepG2.2.15,>1450 µM
CC(=O)NCCCc1cccnc1CN(C)Cc1nc2ccccc2[nH]1,MTT,C8166,>10 µM
C1C[N+]2(CCN1)CC[N+]1(CCNCC1)CC2,-,GMK,>672.7 µg/mL
CC(C)(C)CC(=O)N[C@@H](Cc1ccccc1)C(=O)Nc1ccc(-c2csc(N)n2)cc1,-,HS68,<21 µM
O=c1c(-c2ccccc2)c(O)c2cc(S(=O)(=O)Nc3ccccc3)cnc2n1O,-,HeLa,<100 µM
CCOC(=O)CC(=O)NCCc1ccc(OC)c(OC)c1,-,BJ,<7.5 µM
CN(Cc1ncccc1Br)Cc1nc2ccccc2n1C(=O)OC(C)(C)C,MTT,C8166,>10 µM
COc1ccc(CCNC(=O)CCCCC(C)=O)cc1OC,-,RAJI,<7.5 µM
COc1c[nH]c(=O)c2[nH]cc(C(=O)C(=O)N3CCN(C(=O)c4ccccc4)CC3)c12,trypan blue,HeLa,>100 µM
O=C(NCCCl)N1CC[N+]2(CC1)CC[N+]1(CCN(C(=O)NCCCl)CC1)CC2,-,L929,>90.4 µg/mL
CCn1c(-c2cccc(OC)c2)c(C)c(=O)c2cc(C(C)C)ccc21,MTT,HeLa S3,>8 µg/mL
CC(C)N(Cc1cccc(OCCCCCC(=O)OC(=O)O)c1)C(=O)c1ccc(-c2ccc(Cl)c(Cl)c2)cc1,-,BJ,>20 µM
CC(C)(C)OC(=O)N(CCC(=O)Nc1ccc(-c2csc(N)n2)cc1)C1CCc2ccccc21,-,HS68,<9 µM
CCCc1cc(=O)oc2cc(O)cc(O)c12,neutral red,CV-1,>100 µg/mL
COc1cnc(-c2ncon2)c2[nH]cc(C(=O)C(=O)N3CCN(C(=O)c4ccccc4)[C@H](C)C3)c12,trypan blue,HeLa,>100 µM
O=C(Nc1ccc2c(c1)OCO2)c1cc(-c2cccs2)nc2ccccc12,-,BJ,>20 µM
CC(C)C[C@@H]1NC(=O)[C@H](Cc2c[nH]c3ccccc23)NC(=O)CNC(=O)[C@H](CC(N)=O)NC(=O)[C@H](C(C)C)NC(=O)[C@@H](CC(C)C)NC1=O,MTT,Colorectal carcinoma cells,>30 µM
C1CN(CC2CO2)CC[N+]2(C1)CC[N+]1(CCCN(CC3CO3)CC1)CC2,-,GMK,826.9 µg/mL
COc1cnc(-c2cnc(N)cn2)c2[nH]cc(C(=O)C(=O)N3CCN(C(=O)c4ccccc4)[C@H](C)C3)c12,trypan blue,HeLa,>100 µM
CCOC(=O)CCCCCOc1cccc(CN(C(=O)c2ccc(-c3ccncc3)cc2)C(C)C)c1,-,RAJI,>20 µM
CCOC(=O)CCCOC(=O)[C@@]1(C)CC[C@]2(C)CC[C@]3(C)C(=CC[C@@H]4[C@@]5(C)CC[C@H](O)C(C)(C)[C@@H]5CC[C@]43C)[C@@H]2C1,-,HepG2.2.15,530 µM
CCCc1cc(=O)oc2c3c(c4c(c12)OC(C)(C)[C@H](O)[C@H]4O)O[C@H](C)[C@@H](C)[C@@H]3O,-,CV-1,>100 µg/mL
CC(C)C[C@@H]1NC(=O)[C@H](Cc2c[nH]c3ccccc23)NC(=O)[C@@H](CCCN=C(N)N)NC(=O)[C@H](CC(N)=O)NC(=O)[C@H](C(C)C)NC(=O)[C@@H](CC(C)C)NC1=O,MTT,Lung carcinoma cells,>30 µM
COc1cnc(-n2ncnc2C)c2[nH]cc(C(=O)C(=O)N3CCN(C(=O)c4ccccc4)[C@H](C)C3)c12,trypan blue,HeLa,>100 µM
CCn1c(-c2cccc(C)c2)c(C)c(=O)c2c(Cl)c(OCC(C)C)ccc21,MTT,HeLa S3,>2.5 µg/mL
O=C(NC1CC1)c1c(O)c2cccnc2n(O)c1=O,-,HeLa,<100 µM
CN1CCN(c2ccnc3nc(CN(CCCCN)C4CCCc5cccnc54)[nH]c23)CC1,MTT,C8166,>10 µM
CCOC(=O)CCCCCOc1cccc(CN(C(=O)c2ccc(-c3ccc4c(c3)OCO4)cc2)C(C)C)c1,-,RAJI,>20 µM
CCCc1cc(=O)oc2cc(OC(=O)C(C)(C)C)c3c(c12)OC(C)(C)C=C3,neutral red,CV-1,2 µg/mL
Nc1nc(-c2ccc(NC(=O)NCc3cccc(F)c3)cc2)cs1,-,HS68,<8 µM
O=c1c(-c2ccccc2)c(O)c2cc(-c3cccs3)cnc2n1O,-,HeLa,<100 µM
CCOC(=O)CCCCCOC(=O)[C@@]1(C)CC[C@]2(C)CC[C@]3(C)C(=CC(=O)[C@@H]4[C@@]5(C)CC[C@H](O)C(C)(C)[C@@H]5CC[C@]43C)[C@@H]2C1,-,HepG2.2.15,54.74 µM
O=C(C(=O)N1CCN(C(=O)c2ccccc2)CC1)c1c[nH]c2c(N3CCCC3)ncc(F)c12,trypan blue,HeLa,>100 µM
CCCc1ccc2c(c1)c(=O)c(C)c(-c1ccccc1)n2CC,MTT,HELA-OHIO,5.8 µg/mL
CC1(C)[C@@H](O)CC[C@]2(C)[C@H]3C(=O)C=C4[C@@H]5C[C@@](C)(C(=O)OCc6cc(C(F)(F)F)cc(C(F)(F)F)c6)CC[C@]5(C)CC[C@@]4(C)[C@]3(C)CC[C@@H]12,-,HepG2.2.15,>1700 µM
CN(Cc1nc2ccccc2[nH]1)Cc1ncccc1CCC(=O)NC1CC1,MTT,C8166,>10 µM
Nc1nc(-c2ccc(NC(=O)C(=O)N(Cc3ccccc3)Cc3ccccc3)cc2)cs1,-,HS68,<12 µM
CCOC(=O)c1c(O)c2cc(-c3cc(C)cc(C)c3)cnc2n(O)c1=O,-,HeLa,<100 µM
Cc1cc2c(c(C)c1OCC(C)C)c(=O)c(C)c(-c1ccccc1)n2C,MTT,HeLa S3,>5 µg/mL
CCOC(=O)CCCOC(=O)[C@@]1(C)CC[C@]2(C)CC[C@]3(C)C(=CC(=O)[C@@H]4[C@@]5(C)CC[C@H](O)C(C)(C)[C@@H]5CC[C@]43C)[C@@H]2C1,-,HepG2.2.15,53.34 µM
Cc1[nH]c2ccccc2c1CCNCc1ccc(/C=C/C(=O)NO)cc1,fluorescence,ACH2,>5 µM
COc1c(OCC(C)C)ccc2c1c(=O)c(C)c(-c1ccccc1)n2C,MTT,HELA-OHIO,>10 µg/mL

A second listing of 7 rows from above:

smiles	read by	cells	value
CN(Cc1ncccc1Br)Cc1nc2ccccc2n1C(=O)OC(C)(C)C	MTT	C8166	>10 µM
CC(=O)NCCCc1cccnc1CN(C)Cc1nc2ccccc2[nH]1	MTT	C8166	>10 µM
CCOC(=O)CCCOC(=O)[C@@]1(C)CC[C@]2(C)CC[C@]3(C)C(=CC[C@@H]4[C@@]5(C)CC[C@H](O)C(C)(C)[C@@H]5CC[C@]43C)[C@@H]2C1	-	HepG2.2.15	530 µM
COc1cnc(-c2cnc(N)cn2)c2[nH]cc(C(=O)C(=O)N3CCN(C(=O)c4ccccc4)[C@H](C)C3)c12	trypan blue	HeLa	>100 µM
CCOC(=O)c1c(O)c2cc(-c3cc(C)cc(C)c3)cnc2n(O)c1=O	-	HeLa	<100 µM
CC1(C)[C@@H](O)CC[C@]2(C)[C@H]3C(=O)C=C4[C@@H]5C[C@@](C)(C(=O)OCc6cc(C(F)(F)F)cc(C(F)(F)F)c6)CC[C@]5(C)CC[C@@]4(C)[C@]3(C)CC[C@@H]12	-	HepG2.2.15	>1700 µM
C1CN(CC2CO2)CC[N+]2(C1)CC[N+]1(CCCN(CC3CO3)CC1)CC2	-	GMK	826.9 µg/mL